The values below come from the supplement of paper PMC6522484.

The subject of test [1] is DLD1. As to the kind of experiment: cell viability (CellTiter-Glo) relative to plate median (fraction of plate median); higher = more viable cells. To be noted: 5 µM; treatment time 24 h; reporter: 7TFP. The method, boiled down:
(§1)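 Per-well firefly luciferase or CellTiterGlo luminescence, normalised to the plate median, is what is reported. It was measured in colorectal cancer cells with stable lentiviral TCF/Wnt firefly luciferase reporters after a 24 h treatment with library compounds at a final 5 µM. The mean of two independent replicates is given.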
(ATP-based viability assays read luminescence as a measure of living cells.)

Test [2] has as its system HCT116. The test is described as above. To be noted: 5 µM; treatment time 24 h; reporter: TCF4/Wnt. In outline:
as §1

The subject of test [3] is SW480. The description is as above. The following applies: 5 µM; treatment time 24 h; reporter: 7TFP. In outline: as §1
The subject of test [4] is DLD1. As to the kind of experiment: TCF/Wnt firefly luciferase reporter signal relative to plate median (fraction of plate median); higher = higher Wnt reporter signal. To be noted: 5 µM; treatment time 24 h; reporter: 7TFP. In outline: as §1
(In general: In a reporter assay the amount or activity of a reporter protein is the signal.)

For test [5], the system named is SW480. The description is as above. To be noted: 5 µM; treatment time 24 h; reporter: 7TFP. In outline:
as §1

± gives the standard deviation of the averaged measurements. This is a selection; strong and weak results do not stand in their true shares.

With `CC1=C[C@H]2O[C@@H]3C[C@H]4OC(=O)/C=C\C=C\C(=O)OCC[C@@H](C)[C@H](O)C(=O)OC[C@@]2(CC1)[C@]4(C)[C@]31CO1` [Verrucarin A], the cell viability in test [1] is 0.896 ± 0.025; in test [2] it was 0.474 ± 0.14; in test [3], 1.08. The “TCF/Wnt firefly luciferase reporter signal” value in test [4] came out at 0.254 ± 0.0099; in test [5], 0.325 ± 0.1.

For `CC(=O)O[C@@H]1C[C@H]2O[C@@H]3C(C)=CCC[C@]3(C)[C@]1(C)[C@]21CO1` [Trichodermin], the cell viability came to 0.907 ± 0.015 in test [1], 0.831 ± 0.063 in test [2] and 0.951 ± 0.042 in test [3]. Besides, the “TCF/Wnt firefly luciferase reporter signal” value was determined as 0.797 ± 0.15 in test [4] and 0.835 ± 0.15 in test [5].

`CC1=C[C@H]2O[C@@H]3C[C@H]4OC(=O)/C=C\C=C\C(=O)OCC/C(C)=C/C(=O)OC[C@@]2(CC1)[C@]4(C)[C@]31CO1` [Verrucarin J]: the figures for the cell viability in test [1], in test [2] and in test [3] were 0.911 ± 0.097, 0.447 ± 0.026 and 1.05 ± 0.021, respectively. Besides, the “TCF/Wnt firefly luciferase reporter signal” value in test [4] was 0.304 ± 0.081; in test [5] it was 0.299 ± 0.02.
